A mixed list of measured activities; the numbers were collected in NIAID ChemDB.

All rows: growth or infection tests; agent: HIV-1; read by: cytopathic effect; measure: EC50

Lines come from different laboratories, so protocols vary. An empty or dashed field is not shown. ECn: concentration that inhibits the pathogen or its effect by n%.

compound,changes,strain or isolate,cells,result
CC(C)Nc1cccnc1N1CCN(C(=O)c2cc3cc(NS(C)(=O)=O)ccc3[nH]2)CC1,,IIIB,MT-4,>0.05 µg/mL
Cc1ccc(N2C(=O)/C(=C/c3ccc(-c4ccc(Cl)c(C(=O)O)c4)o3)SC2=S)c(C)c1,,IIIB,MT-2,0.66 µM
CCCCCCCCC(=O)CCCCC(=O)O,,,CEM,>10 µg/mL
Cc1cn([C@H]2CC[C@@H](COC(=O)c3ccccc3)O2)c(=O)[nH]c1=O,,,MT-2,<250 µM
COc1cc(Cc2cnc(/N=C3\C(=O)N(CN4CCN(c5ccc(Cl)cc5)CC4)c4ccc(C)cc43)nc2N)cc(OC)c1OC,,,MT-4,17.2 µM
[N-]=[N+]=NCCCCCCCCCCCC(=O)O,,,CEM,<1 µg/mL
Cc1ccc(NC(=O)NCCSCc2ccc(CNC(C)C)o2)cc1Cl,,,U1,<100 µM
Cn1ccnc1CCCCCCCCCCCC(=O)O,,,CEM,>10 µg/mL
Nc1nc(N)c2ncn([C@H]3C[C@H](F)[C@@H](CO)O3)c2n1,,IIIB,MT-4,4.5 µM
COc1cc(Cc2cnc(/N=C3\C(=O)N(CN4CCN(c5ccccc5)CC4)c4ccc(C)cc43)nc2N)cc(OC)c1OC,,,MT-4,>116.1 µM
O=C(O)c1cc(-c2ccc(/C=C3\SC(=S)N(c4cccc([N+](=O)[O-])c4)C3=O)o2)ccc1Cl,,IIIB,MT-2,1.046 µM
Cc1cn([C@H]2C[C@H](N=[N+]=[N-])[C@@H](CO)O2)c(=O)[nH]c1=O,,IIIB,C8166,0.0031 µg/mL
NNC(=O)Cc1nc2n(n1)CCCCC2,,IIIB,MT-4,>125 µg/mL
Nc1nc2c(ncn2[C@H]2C=C[C@@H](CO)C2)c(=O)[nH]1,,IIIB,MT-2,0.19 µg/mL
C=C1CN(S(=O)(=O)c2ccc(C)cc2)CCCN(Cc2ccccc2)CCCN(S(=O)(=O)c2ccc(C)cc2)C1,,IIIB,MT-4,0.3 µM
CCn1nc(CC(=O)N/N=C/c2ccco2)nc1C,,IIIB,MT-4,>102 µg/mL
Nc1ncnc2c1nnn2[C@H]1CC[C@@H](CO)O1,,,MT-4,>0.3 µM
COP(=O)(c1cc(C)cc(CCC#N)c1)c1c(C(N)=O)[nH]c2ccc(Cl)cc12,K103N/Y181C,IIIB,MT-4,0.0091 µM
CCn1nc(Cc2n[nH]c(=S)o2)nc1C,,IIIB,MT-4,>58.3 µg/mL
Nc1nc(N)c2ncn([C@H]3CC[C@@H](CO)C3)c2n1,,IIIB,MT-2,16.7 µg/mL
O=C(O)CCCCCCCCCCCn1cnnc1,,RF,CEM,<10 µg/mL
Nc1nccc2nnn([C@@H]3O[C@H](CO)[C@@H](O)[C@H]3O)c12,,,MT-4,>398 µM
COc1ccc(-n2c(Cc3nc4n(n3)CCCC4)n[nH]c2=S)cc1,,IIIB,MT-4,>97.4 µg/mL
Nc1nc(N)c2ncn([C@H]3C=C[C@@H](CO)C3)c2n1,,IIIB,MT-2,4.7 µg/mL
COc1cc(Cc2cnc(/N=C3\C(=O)N(CN4CCN(c5c(OC)cc6c(c5F)c(=O)c(C(=O)O)cn6C5CC5)CC4C)c4ccc(C)cc43)nc2N)cc(OC)c1OC,,,MT-4,21.2 µM
S=c1[nH]nc(Cc2nc3n(n2)CCCCC3)o1,,IIIB,MT-4,>66.6 µg/mL
OC[C@H]1O[C@@H](n2nnc3ccnc(Cl)c32)C[C@@H]1O,,,MT-4,>368 µM
COc1cc(Cc2cnc(/N=C3\C(=O)N(CN4CCNCC4)c4ccc(C)cc43)nc2N)cc(OC)c1OC,,,CEM,>89.2 µM
COc1ccc(N2C(=O)/C(=C/c3ccc(-c4ccc(Cl)c(C(=O)O)c4)o3)SC2=S)cc1,,IIIB,MT-2,1.887 µM
COc1cc(Cc2cnc(/N=C3\C(=O)N(CN4CCN(c5ccc([N+](=O)[O-])cc5)CC4)c4ccc(C)cc43)nc2N)cc(OC)c1OC,,,MT-4,>47.96 µM
COc1ccccc1N1C(=O)/C(=C/c2ccc(-c3cccc(C(=O)O)c3)o2)SC1=S,,IIIB,MT-2,2.65 µM
Cc1cn([C@H]2C=C[C@@H](COC(=O)CC3(C)C[C@](C)(O)CO3)O2)c(=O)[nH]c1=O,,,JM,40 µM
Nc1ncnc2c1nnn2[C@@H]1O[C@H](CO)[C@@H](O)[C@H]1O,,,MT-4,>0.3 µM
O=C(O)CCCCCCCCCCCn1ccnn1,,,CEM,>1 µg/mL
Cc1cn([C@H]2C[C@H](N=[N+]=[N-])[C@@H](CO)O2)c(=O)[nH]c1=S,,,ATH8,<50 µM
Nc1nccc2nn([C@@H]3O[C@H](CO)[C@@H](O)[C@H]3O)nc12,,,MT-4,>358 µM
CSCO[C@]1(C)COC(C)(CC(=O)OC[C@@H]2C=C[C@H](n3cnc4c(N)ncnc43)O2)C1,,,C8166,80 µM
O=C(O)CCCCCCCCCCCCn1ncnn1,,,CEM,>10 µg/mL
Nc1nccc2c1ncn2[C@H]1C[C@H](O)[C@@H](CO)O1,,,MT-4,>145 µM

For reference, 3 entries again:

compound,changes,strain or isolate,cells,result
Cc1cn([C@H]2C[C@H](N=[N+]=[N-])[C@@H](CO)O2)c(=O)[nH]c1=O,,IIIB,C8166,0.0031 µg/mL
[N-]=[N+]=NCCCCCCCCCCCC(=O)O,,,CEM,<1 µg/mL
CSCO[C@]1(C)COC(C)(CC(=O)OC[C@@H]2C=C[C@H](n3cnc4c(N)ncnc43)O2)C1,,,C8166,80 µM